Measured values from several laboratories, pooled; numbers as filed in NIAID ChemDB.

Common to all: whole-cell or culture tests; organism: Hepatitis C virus

An empty or dashed field is not shown. ECn is the concentration giving n% inhibition of infection, replication or growth. Rows are shuffled and stem from different studies.

{"SMILES": "CNC(=O)c1c(-c2ccc(F)cc2)oc2cc(N(CCO)S(C)(=O)=O)c(C3CC3)cc12", "measure": "EC50", "read by": "luciferase", "cell line": "Huh7", "strain": "6a", "result": "0.0162 µM"}
{"SMILES": "COc1ccc2c(O[C@@H]3C[C@H]4C(=O)N[C@]5(C(=O)NS(=O)(=O)C6CC6)C[C@H]5/C=C\\CCCCN(C)C(=O)[C@@H]4C3)cc(-c3nc(C(C)C)cs3)nc2c1C", "measure": "EC50", "read by": "antigen", "cell line": "Huh7.5", "strain": "JCH2", "result": "0.101 µM"}
{"SMILES": "CCC[C@H](NC(=O)[C@@H]1[C@H]2CCC[C@H]2CN1C(=O)[C@@H](NC(=O)[C@@H](NC(=O)c1cnccn1)C1CCCCC1)C(C)(C)C)C(=O)C(=O)NC1CC1", "measure": "EC50", "read by": "luciferase / reporter gene", "cell line": "Huh7.5", "strain": "genotype 1b", "result": "0.3016 µM"}
{"SMILES": "C[C@@]1(O)[C@H](O)[C@@H](CO)O[C@H]1n1cnc2c(N)ncnc21", "measure": "EC50", "read by": "luciferase", "cell line": "Huh7-Lunet", "strain": "GT3a", "result": "0.192 µM"}
{"SMILES": "O=C(O)c1c(-c2ccco2)nc(NCc2nc3ccccc3[nH]2)[nH]c1=O", "measure": "EC50", "read by": "replicon / PCR", "cell line": "Huh7", "result": "0.87 µM"}
{"SMILES": "CC(C)(C)OC(=O)N[C@@H]1CCCCC/C=C\\[C@@H]2C[C@@]2(C(=O)NS(=O)(=O)C2CC2)NC(=O)[C@@H]2C[C@@H](OC(=O)N3Cc4cccc(F)c4C3)CN2C1=O", "measure": "EC50", "read by": "antigen", "cell line": "Huh7.5", "strain": "J6", "result": "0.111 µM"}
{"SMILES": "CC[C@H](C)C(=O)O[C@H]1C[C@H](O)C=C2C=C[C@H](C)C(CC[C@@H](O)C[C@H](O)CC(=O)O)[C@H]21", "measure": "EC90", "read by": "luciferase / replicon", "cell line": "Huh 9-13", "result": ">20 µM"}
{"SMILES": "N#Cc1c(-c2ccc(F)cc2)nc(NCc2nc3ccccc3[nH]2)[nH]c1=O", "measure": "EC50", "read by": "replicon / PCR", "cell line": "Huh7", "result": "0.277 µM"}
{"SMILES": "CCC[C@H](NC(=O)[C@@H]1[C@H]2CCC[C@H]2CN1C(=O)[C@@H](NC(=O)[C@@H](NC(=O)c1cnccn1)C1CCCCC1)C(C)(C)C)C(=O)C(=O)NC1CC1", "measure": "EC50", "read by": "luciferase", "strain": "1b WT", "result": "0.475 µM"}
{"SMILES": "O=C(O)c1c(-c2ccccc2)nc(SCc2nc3ccccc3[nH]2)[nH]c1=O", "measure": "EC50", "read by": "replicon / PCR", "cell line": "Huh7", "result": "0.465 µM"}
{"SMILES": "CC(=O)Nc1ccc(-c2ccc(Cl)cc2)c(COc2ccc(-c3nc4cc(C(=O)O)ccc4n3C3CCCCC3)cc2)c1", "measure": "EC50", "read by": "luciferase", "cell line": "H77", "result": "0.1093 µM"}
{"SMILES": "CC1=CC[C@H](C(=O)N(c2cc(C#CC(C)(C)C)sc2C(=O)O)C2CCC(O)(CO[C@H]3CCOC3)CC2)CC1", "measure": "EC50", "read by": "luciferase", "cell line": "Huh7-Lunet", "strain": "GT1b", "result": "0.011 µM"}
{"SMILES": "C[C@@]1(O)[C@H](O)[C@@H](CO)O[C@H]1n1cnc2c(N)ncnc21", "measure": "EC50", "read by": "luciferase", "cell line": "Huh7", "strain": "1b", "result": "0.3717 µM"}
{"SMILES": "N#Cc1c(-c2ccccc2)nc(NCc2nc3ccccc3[nH]2)[nH]c1=O", "measure": "EC90", "read by": "replicon / PCR", "cell line": "Huh7", "result": "0.678 µM"}

The last 2 rows once more:

SMILES,measure,read by,cell line,strain,result
C[C@@]1(O)[C@H](O)[C@@H](CO)O[C@H]1n1cnc2c(N)ncnc21,EC50,luciferase,Huh7,1b,0.3717 µM
N#Cc1c(-c2ccccc2)nc(NCc2nc3ccccc3[nH]2)[nH]c1=O,EC90,replicon / PCR,Huh7,-,0.678 µM